# According to the supplement of paper PMC9931576:
# Human monoclonal antibodies against the spike receptor-binding domain (heavy:light variable regions). IC50 against pseudoviruses bearing the spike of naturally observed variants; lower = stronger; >10 µg/ml means not reached at the top dose. No active / inactive call. The stated detection limit is 0.0005 µg/ml; values near or below 0.001 µg/ml lie at the floor of the assay.
# B1: COV2-2381 (protein)
# chain 1: QMQLVQSGPEVKKPGTSVKVSCKASGFTFTSSAVQWVRQARGQRLEWIGWIAVGSGNTNYAQKFQERVSITRDMSTSTAYMELSSLRSEDTAVYYCAAPYCSRTSCHDAFDIWGQGTKVTVSS
# chain 2: EVVLTQSPGTLSLSPGERATLSCRASQSVSSSYLAWYQQKPGQAPRLLIYGASSRATGIPDRFSGSGSGTDFTLTISRLEPEDFAVYHCQHFGSSSQWTFGQGTKVEIK
# B2: BD56-1439 (protein)
# chain 1: QVQLVESGGGLVKPGGSLRLSCAVSGFIFSDYSMSWIRQAPGKGLEWISYIPDTSSYTDYADSVKGRFTISRDNDKNSLYLQMDSLRAEDTAVYYCARVSQIYCSGGSCYSGNYFDYWGQGTLVTVSS
# chain 2: ETVMTQSPATLSVSPGERVTLSCRASQHISSNLAWYQQKPGQAPRLLIYSASTRATSIPARFSGSGSGTEFSLTISSLQSADFALYYCLQYDNWPGTFGQGTKLEIK
# B3: BD56-1446 (protein)
# chain 1: QIQLLQSGPEVKKPGTSVKVSCRASGFTFRSSAVQWLRQTRGQRLEWIGWIVAGSGDTDYAQKFQERATITRDMSTSTTYMELSSLRSEDTAVYYCAAPSCSSTICYDGFNLWGQGTMVTVSS
# chain 2: EIVLTQSPGTLSLSPGERATLSCRASQSARANYLAWYQQKPGQAPRLLIYGASSRATGIPDRFSGSGSGTDFTLTISRLEPEDFSVYYCQQYGTSPWTFGQGTKVEIK
# B4: BD56-1447 (protein)
# chain 1: QVQLVQSGAEVKKPGASVKLSCKASGYTFSSNYIHWVRQAPGQGLEWMGIINPSGGSTRYAQKFQGRVSMTRDTSTSTVYMELSSLRSADTAVYYCARSMYRTSSEGNYYYYYMDVWGKGTTVTVSS
# chain 2: QSALTQPASVSGSPGQSITISCTETASDFALYNYVSWYQRRPGEAPKLVIYDVNKRPSGVSNRFSGSKSGNTASLTISGLQAEDEADYYCSSYTSANIHAVFGGGTKLTVL
# B5: BD56-1451 (protein)
# chain 1: QVTLRESGPALVKPTQTLTLTCTFSGFSLSTSGMCVSWIRQPPGKALEWLALIDWDDDKSYSISLKTRLTISKDTSKNQVVLTMTNMAPVDTATYYCARIRGGSSAYQYDYYGMDVWGQGTTVTVSS
# chain 2: SYELTQPPSVSVSPGQTARITCSGDAWPKQYAYWYQQKPGQAPVLVIYKDTERPSGIPERFSGSSSGTTVTLTISGVQAEDEADYYCQSADSRHWVFGGGTKLTVL
# B6: BD56-1456 (protein)
# chain 1: QVQLVQSGAEVKKPGASVKVSCKASGYTFTSYGIGWVRQAPGQGLEWMGWISAPNGDTNYAQNVRGRVTVTTDTSTSTAYMELRRLRSGDTAVYYCARVFGIYDYIWGSYPYPPFFDYWGQGTLVTVSS
# chain 2: SYELTQPPSVSVSPGQTASITCSGDKLGDKYASWYQQKPGQSPVVVIYQQNKRPSGIPERFSGSISGSTATLTISGTQAMDEADYYCQAWDSSTVVFGGGTKLTVL
# Target: SARS-CoV-2 Omicron BA.1 spike pseudovirus
# Assay: pseudovirus neutralization IC50; higher = weaker neutralization
# Procedure: (§1)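 Single-round VSV luciferase pseudovirus mixed with antibody dilutions for 1 h and put on Huh-7 cells for about a day; IC50 from the dose curve.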
row,Binder,pseudovirus neutralization IC50 [µg/mL]
1,B1,0.187
2,B2,0.00261
3,B3,0.00137
4,B4,> 10
5,B5,> 10
6,B6,0.343

# Target: SARS-CoV-2 Omicron BA.2 spike pseudovirus
# Assay: as above
# Procedure: as §1
row,Binder,pseudovirus neutralization IC50 [µg/mL]
1,B1,1.09
2,B2,0.00374
3,B3,0.00108
4,B4,0.00695
5,B5,> 10
6,B6,0.158

# Target: SARS-CoV-2 Omicron BA.2.75 spike pseudovirus
# Assay: as above
# Procedure: as §1
row,Binder,pseudovirus neutralization IC50 [µg/mL]
1,B1,0.0244
2,B2,0.00531
3,B3,0.00249
4,B4,> 10
5,B5,> 10
6,B6,0.276

# Target: SARS-CoV-2 Omicron BA.5 spike pseudovirus
# Assay: as above
# Procedure: as §1
row,Binder,pseudovirus neutralization IC50 [µg/mL]
1,B1,> 10
2,B2,> 10
3,B3,0.215
4,B4,0.0236
5,B5,> 10
6,B6,2.77

# Target: SARS-CoV-2 Omicron BQ.1.1 spike pseudovirus
# Assay: as above
# Procedure: as §1
row,Binder,pseudovirus neutralization IC50 [µg/mL]
1,B1,> 10
2,B2,> 10
3,B3,0.259
4,B4,> 10
5,B5,> 10
6,B6,> 10

# Target: SARS-CoV-2 Omicron XBB spike pseudovirus
# Assay: as above
# Procedure: as §1
row,Binder,pseudovirus neutralization IC50 [µg/mL]
1,B1,> 10
2,B2,> 10
3,B3,2.89
4,B4,> 10
5,B5,> 10
6,B6,3.45

# Target: SARS-CoV-2 early D614G spike pseudovirus
# Assay: as above
# Procedure: as §1
row,Binder,pseudovirus neutralization IC50 [µg/mL]
1,B1,0.0079
2,B2,0.00213
3,B3,0.00101
4,B4,0.0018
5,B5,2.54
6,B6,0.0253
